Anti-infective test results gathered from many reports (values: NIAID ChemDB through PubChem).

Common to all: growth or infection tests; species: Human cytomegalovirus; read-out: EC50

Neighbouring rows are from separate reports. ECn is the concentration giving n% inhibition of infection, replication or growth. Blank or dashed fields: not listed here.

compound | strain or isolate | read by | result
[N-]=[N+]=N[C@H]1C[C@H](CO)S[C@H]1n1cnc2c(=O)[nH]cnc21 |  |  | <100 µg/mL
C[C@@H]1O[C@@H](n2c(Cl)nc3cc(Cl)c(Cl)cc32)[C@H](O)[C@@H]1O | AD169 | plaque count | 0.82 µM
COc1cccc(N2CCN(C3=Nc4c(F)cccc4[C@H](CC(=O)O)N3c3cc(C(F)(F)F)ccc3OC)CC2)c1 | 759rD100 | plaque count | 0.0024 µM
CN(C)c1cccc2c(S(=O)(=O)Nc3ccc(NC(=O)C(C)(C)CO)cc3)cccc12 | V2 (ganciclovir-resistant) | plaque count | 0.3 µM
[N-]=[N+]=N[C@H]1C[C@@H](CO)S[C@@H]1n1ccc(N)nc1=O |  |  | <100 µg/mL
Nc1nc2c(ncn2COC(CO)CO)c(=O)[nH]1 | VR4990 (ganciclovir-resistant) | plaque count | 23 µM
Cc1cn([C@@H]2S[C@@H](CO)C[C@@H]2N=[N+]=[N-])c(=O)[nH]c1=O |  |  | <100 µg/mL
CCCC(C)Nc1ccc(Oc2ccc(O)cc2)cc1 | GDGRP53 (ganciclovir-resistant) | virus yield | 0.15 µM
Nc1ncnc2c1c(Cl)cn2COCCO | TOWNE |  | 4.3 µM
O=C(Nc1ccc(NC(=S)Nc2ccc(Cl)c(C(F)(F)F)c2)cc1)c1csnn1 |  |  | 0.026 µM
CC/C=C\Cn1c(=O)sc2c(=O)[nH]c(N)nc21 | D16 (DHPG-R) | plaque count | <0.4 µM
[N-]=[N+]=N[C@@H]1C[C@@H](CO)S[C@@H]1n1ccc(=O)[nH]c1=O |  |  | <100 µg/mL
O=C(O)P(=O)(O)O | AD169 | plaque count | 50 µM
O=C(NCc1ccc(Cl)cc1)c1c[nH]c2c(F)cccc2c1=O | DAVIS | plaque count | 5.1 µM
CC(Nc1ccc(Oc2ccc(O)cc2)cc1)C1CC1 |  | virus yield | 5.7 µM
OC[C@H]1O[C@@H](n2c(Br)nc3cc(Cl)c(Cl)cc32)[C@H](O)[C@@H]1O | AD169 | plaque count | 0.58 µM
CC(C)Nc1ccc(Oc2ccc(O)cc2)cc1 |  | virus yield | 13.6 µM
Cc1nc(N2CCOC[C@@H]2C)nc(-n2ccnc2C)c1[N+](=O)[O-] |  |  | 0.38 µM
CN(C)c1cccc2c(S(=O)(=O)Nc3ccc(NC(=O)C(C)(C)CO)cc3)cccc12 | WILD TYPE | plaque count | 0.44 µM
CC(C)Nc1nc2cc(Cl)c(Cl)cc2n1[C@H]1O[C@@H](CO)[C@H](O)[C@@H]1O |  |  | <1 µM
Nc1nc2c(ncn2[C@H]2C=C[C@@H](CO)[C@H](O)C2)c(=O)[nH]1 | DAVIS |  | 3.97 µg/mL
CO[C@@H]1CCCC[C@H]1Nc1nc(C)c([N+](=O)[O-])c(-n2ccnc2)n1 |  |  | 0.15 µM
Cc1cc(C)cc(Cn2c(=O)ccn(Cc3ccncc3)c2=O)c1 | AD169 |  | >160 µM
CCC(C)Nc1ccc(Oc2ccc(O)cc2)cc1 |  | virus yield | 1 µM
Nc1nc2c(ncn2COC(CO)CO)c(=O)[nH]1 | 17517 (GCV-susceptible) | plaque count | 3.2 µM
O=C(NCc1ccc(Cl)cc1)c1c[nH]c2ccc(CCCO)cc2c1=O | 759rD100 | plaque count | 0.3 µM
OC[C@H]1O[C@@H](n2c(Cl)nc3cc(Cl)c(Cl)cc32)[C@H](O)[C@@H]1O | D10 (D341E) | virus yield | <7.9 µM
O=C(NCc1ccc(Cl)cc1)c1c[nH]c2c(F)cccc2c1=O | 9 isolates | plaque count | 12 µM
COCC(C)Nc1nc(C)c([N+](=O)[O-])c(-n2ccnc2)n1 |  |  | 0.35 µM
Nc1nc2c(ncn2COC(CO)CO)c(=O)[nH]1 | TOWNE | virus yield | <0.4 µM
CN(C)c1cccc2c(S(=O)(=O)Nc3ccc(NC(=O)C(C)(C)CO)cc3)cccc12 | 36 isolates | plaque count | 1 µM
Oc1ccc(Oc2ccc(NC3CCCCCC3)cc2)cc1 |  | virus yield | 4.1 µM
Cc1nc(NC2CCc3cc(F)ccc32)nc(-n2ccnc2)c1[N+](=O)[O-] |  |  | 0.35 µM
Oc1ccc(Sc2ccc(NC3CCCCCC3)cc2)cc1 |  | virus yield | 12.9 µM
C=CCn1ccc(=O)n(Cc2cc(C)cc(C)c2)c1=O | AD169 |  | >190 µM
COc1cc(OC)c(NC(=S)Nc2ccc(NC(=O)c3ccco3)cc2)cc1Cl | 16 isolates | virus yield | <0.15 µM
[N-]=[N+]=N[C@@H]1C[C@@H](CO)S[C@@H]1n1cnc2c(Cl)ncnc21 |  |  | <100 µg/mL
COc1cc(OC)c(NC(=S)Nc2ccc(NC(C)=O)cc2)cc1Cl | 50 isolates | plaque count | 0.166 µM
Oc1ccc(Oc2ccc(NC3CCCCCCC3)cc2)cc1 |  | virus yield | 6.7 µM
Cc1cc(C)cc(Cn2c(=O)ccn(CC(c3ccccc3)c3ccccc3)c2=O)c1 | AD169 |  | >5 µM
O=C(NCc1ccc(Cl)cc1)c1c[nH]c2c(F)cccc2c1=O | ADI | plaque count | 19 µM
Cc1cc(C)cc(Cn2c(C)cc(=O)n(CC#N)c2=O)c1 | AD169 |  | >710 µM
C=C[C@@](C)(CO)CCn1cnc2c(N)ncnc21 |  |  | >100 µg/mL

The first 5 rows once more:

[N-]=[N+]=N[C@H]1C[C@H](CO)S[C@H]1n1cnc2c(=O)[nH]cnc21 ; result: <100 µg/mL
C[C@@H]1O[C@@H](n2c(Cl)nc3cc(Cl)c(Cl)cc32)[C@H](O)[C@@H]1O ; strain or isolate: AD169 ; read by: plaque count ; result: 0.82 µM
COc1cccc(N2CCN(C3=Nc4c(F)cccc4[C@H](CC(=O)O)N3c3cc(C(F)(F)F)ccc3OC)CC2)c1 ; strain or isolate: 759rD100 ; read by: plaque count ; result: 0.0024 µM
CN(C)c1cccc2c(S(=O)(=O)Nc3ccc(NC(=O)C(C)(C)CO)cc3)cccc12 ; strain or isolate: V2 (ganciclovir-resistant) ; read by: plaque count ; result: 0.3 µM
[N-]=[N+]=N[C@H]1C[C@@H](CO)S[C@@H]1n1ccc(N)nc1=O ; result: <100 µg/mL